# Data source: PubChem BioAssay AID504761 (Drosophila RNAi Screening Center, 2011)
# Purpose: 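Genome-wide fly cell screen for genes dengue virus requires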 (primary screen)
# System: D.Mel-2 cells from Drosophila
# Reagent: long dsRNA against Drosophila genes
# Treatment: infection with dengue virus type 2; dose and infection time not stated
# Measurement: 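Cells stained for dengue envelope protein and imaged; percent of infected cells per well on duplicate plates, ranked by infection, with stained nuclei counted for cell number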
# Scale: infection score: higher = more virus-infected cells; cell count: higher = more cells in the well
# Active means: 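Very low infection ranking in both replicate wells (chance probability at most 0.065), then a retest showing infection dropped 1.5-fold or more at p below 0.05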
# Calls: active = confirmed: knock-down lowers infection; inactive = not picked or not confirmed
# The deposit covers about 22,000 reagents; this is a random part of those with a known target gene and a result. Over the whole deposit, 116 (0.52%) got an active call. 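Calls depend on retest data that are not deposited; infection was ranked per plate without normalising between plates; the unit of the infection score is not given.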 Raw values vary from plate to plate and are shown uncorrected. Unmarked entries are inactive. The record does not give: the amount of reagent, the time to read-out.
target gene,dsRNA,"infection score, replicate 1","infection score, replicate 2","cell count, replicate 1","cell count, replicate 2"
RalGPS,DRSC06941,6.58,7.44,6546,5884
RalGPS,DRSC27139,13.5,8.68,5214,6219
Spase22-23,DRSC15857,0.49,0.4,6264,6931
Ccp84Ad,DRSC12589,2.74,5.82,6267,6147
Ccp84Ad,DRSC22854,0.91,13.3,5520,3734
CG12541,DRSC17839,2.01,1.3,6257,7096
CG12541,DRSC28362,9.31,30.8,1944,5739
Ir62a,DRSC08250,4.08,5.09,6076,6145
CG15629,DRSC00464,8.1,16.8,6891,6414
CG15629,DRSC29518,14,8.04,4867,3982
CheB93b,DRSC21762,6.19,12.2,6719,5935
CG6425,DRSC16038,2.39,5.62,6232,6834
CG12637,DRSC17845,7,7.16,5772,5713
CG12637,DRSC28060,20.1,26.7,6409,5455
Act57B,DRSC04042,18.6,19.1,6009,5688
alphaCOP,DRSC08706,9.28,15.6,1325,2418
Abca3,DRSC20546,4.72,4.17,5993,5954
CG11269,DRSC04094,20.9,8.01,6368,6189
CG14759,DRSC06494,4.97,26.1,6644,5465
Nnf1a,DRSC06394,1.12,2.03,6052,6058
lwr,DRSC00828,3.8,1.14,4846,5637
lwr,DRSC27034,12.3,1.49,5304,5227
msd1,DRSC08383,2.47,7.39,6811,6471

Ordered by “infection score, replicate 1” (high to low): 4 of the entries above.
target gene,dsRNA,"infection score, replicate 1","infection score, replicate 2","cell count, replicate 1","cell count, replicate 2"
RalGPS,DRSC27139,13.5,8.68,5214,6219
Ccp84Ad,DRSC12589,2.74,5.82,6267,6147
Ccp84Ad,DRSC22854,0.91,13.3,5520,3734
Spase22-23,DRSC15857,0.49,0.4,6264,6931

Additional results follow.
target gene,dsRNA,"infection score, replicate 1","infection score, replicate 2","cell count, replicate 1","cell count, replicate 2"
CG14011,DRSC02343,5.55,4.3,6508,6813
CG14011,DRSC27954,5.71,7.1,6204,6140
M7BP,DRSC05932,15.3,25.6,5837,4931
CG31286,DRSC26727,3.07,4.02,6898,6291
CG13891,DRSC08361,3.59,1.11,5647,5757
CG13891,DRSC25733,1.94,4.72,6456,6292
Sirt1,DRSC03435,15.2,1.72,6160,6354
CG31997,DRSC17105,2.56,8.72,6246,6058
CG8501,DRSC07198,0.93,3,6120,6358
Nepl20,DRSC14878,10.7,9.33,3695,7246
Exd2,DRSC16105,18.3,3.76,6260,6334
Exd2,DRSC25938,1.15 (active),0.5,6444,6235
CG33325,DRSC12699,2.39,2.62,4681,2026
CG18539,DRSC06766,23.9,11.9,5060,6276
Rab8,DRSC11261,4.67,9.11,6296,6289
Tsp74F,DRSC10508,7.18,7.97,6618,6571
Cpr47Eb,DRSC06345,7.32,16.4,6350,5630
TwdlT,DRSC21540,0.87,1.08,5964,6481
Rh6,DRSC16823,4.89,29.7,6518,5615
Rh6,DRSC26166,12.1,5.73,5336,6688
puml,DRSC06793,7.21,17.7,2206,4290
Or69a,DRSC11243,3.01,4.67,6203,6430
Or69a,DRSC25967,2.41,2.54,6589,6303
CG13358,DRSC18534,6.76,1.46,5580,6658
CG13358,DRSC23742,27.5,10,5374,4354
mib1,DRSC10550,1.38,2.87,6437,6478
CG5262,DRSC11773,15.6,17.9,5165,4067
tgo,DRSC17077,2.71,3.55,5687,5668
tgo,DRSC29930,,2.46,300,6675
CG6696,DRSC20004,4.4,2.69,2843,5054
CG6696,DRSC25648,1.01,11.9,6433,4735
CG4577,DRSC00658,2.01,2.66,6522,6242
e,DRSC16936,2.44,1.61,6549,6320
e,DRSC24320,1.9,2.43,6536,6951
Sgs8,DRSC11282,1.67,2.4,5819,6032
